This experiment concerns the target E. coli DHPR enzyme (Escherichia coli, UniProt P04036). The experiment in a line: Dihydrodipicolinate reductase (DHPR) kinetic spectrophotometric assay, NADPH oxidation at 340 nm. The settings on record: read-out: IC50 for DHPR; common ligand mimics/variants, FIG. 9, 11, 13, 14.

The chains behind the UniProt entries cited, without tags or fusion partners.
UniProt P04036, whole entry: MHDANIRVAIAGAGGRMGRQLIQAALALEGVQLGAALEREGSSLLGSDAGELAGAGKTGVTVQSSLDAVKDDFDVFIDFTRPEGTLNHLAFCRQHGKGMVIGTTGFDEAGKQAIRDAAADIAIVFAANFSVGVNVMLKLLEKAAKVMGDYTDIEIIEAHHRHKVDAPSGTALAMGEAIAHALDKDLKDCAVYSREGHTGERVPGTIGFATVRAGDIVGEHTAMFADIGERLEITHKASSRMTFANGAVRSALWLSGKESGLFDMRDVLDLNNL

SMILES strings stand for the structures.

For `O=C(O)c1ccc(-c2ccc(-c3nc4ccccc4[nH]3)o2)cc1`, the IC50 (usually the point on the concentration scale where inhibition reaches its midpoint) was 32 µM. The figure for `Cc1[nH]c(-c2ccc(-c3ccc(C(=O)O)cc3)o2)nc1-c1ccccc1` is over 100 µM; for `Cc1[nH]c(-c2ccc(-c3cccc(C(=O)O)c3)o2)nc1-c1ccccc1` it is 45 µM.

Values taken from patent US20030180797A1, “Identification of ligands for a receptor family and related methods” (priority 2002, published 2003).
